PubChem BioAssay AID1259414 | Drosophila RNAi Screening Center, 2018
Screen: 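Fly genes that alter Wolbachia amount inside host cells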 (primary screen). System: Drosophila JW18 cells infected with Wolbachia. Knock-down reagent: long dsRNA against Drosophila genes, 0.25 µg dsRNA per well of a 384-well plate. Time to read-out: 5 days. Treatment: cells persistently infected with Wolbachia before knock-down; no added drug. Measurement: 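Automated imaging of bacterial rRNA staining divided by host cell count, reported as plate-normalised robust z-score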. Direction: Wolbachia per cell robust z: higher = more Wolbachia per host cell than the plate typical. Call rule: 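Active if absolute robust z reaches 1.5 in two or more of three replicates, leaving out multi- or no-target dsRNAs, genes unexpressed in JW18 and A1 wells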.
The deposit covers about 24,000 reagents; this is an unselected part of those with a known target gene and a result. In the full data, about 1,210 (5%) are marked active. 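Inactive calls also include excluded dsRNAs with several or no targets, genes unexpressed in JW18, and well A1, regardless of score.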 The numbers tell different reagents against one gene apart. Names joined by + are all predicted targets of the reagent.

gene,reagent,"Wolbachia per cell robust z, rep 1","Wolbachia per cell robust z, rep 2","Wolbachia per cell robust z, rep 3",Outcome
Cand1,1,-1.53,-0.653,-0.0687,inactive
Nepl12,1,-0.322,0.602,-4.8,inactive
CG10232,1,0.953,-1.22,0.598,inactive
RpS10b,1,-2.67,-0.0458,-3.6,active
Rbp6,1,0.594,-0.439,1.21,inactive
Rbp6,2,-1.86,-6.81,-3.29,inactive
Rbp6,3,-4.36,-0.024,-0.234,inactive
Rbp6,4,-3.2,0.315,0.202,inactive
LysE,1,-0.411,-1.57,-2.99,active
CG8252,1,1.08,-1.94,0.705,inactive
CG8252,2,-2.32,0.798,0.556,inactive
lncRNA:CR32690,1,0.481,0.444,0.387,inactive
lncRNA:CR32690,2,-0.446,-0.85,-0.233,inactive
Ocho,1,0.47,0.75,0.568,inactive
Ocho,2,0.204,-0.237,-0.307,inactive
CG7963,1,0.019,-0.579,1.05,inactive
CG43998 + CG43999,1,-0.456,-0.924,-0.937,inactive
CG4596,1,0.541,0.654,-3.91,inactive
CG4596,2,-0.904,0.247,1.8,inactive
CG14131,1,-0.163,0.491,0.926,inactive
CG14131,2,1.11,1.45,0.658,inactive
Cnx14D,1,0.0842,0.687,0.0717,inactive
Cnx14D,2,-0.18,-1.37,-0.869,inactive
Pex14,1,-3.11,-1.29,0.714,inactive
Pex14,2,-0.672,-1.27,-1.08,inactive
CG31659,1,0.0479,0.431,-0.457,inactive
pk,1,0.0574,-0.163,-5.21,inactive
pk,2,0.961,-0.171,-0.364,inactive
pk,3,-2.47,-1.27,0.177,inactive
aqz,1,-3.47,-0.00723,0.54,inactive
aqz,2,-1.02,-0.554,-0.613,inactive

Continued, starting with the last 4 of the part before.
gene,reagent,"Wolbachia per cell robust z, rep 1","Wolbachia per cell robust z, rep 2","Wolbachia per cell robust z, rep 3",Outcome
pk,2,0.961,-0.171,-0.364,inactive
pk,3,-2.47,-1.27,0.177,inactive
aqz,1,-3.47,-0.00723,0.54,inactive
aqz,2,-1.02,-0.554,-0.613,inactive
Agps,1,0.25,-3.94,-1.18,inactive
Agps,2,0.864,0.0393,-2.52,inactive
Vps4,1,2.22,2.06,7.52,inactive
Vps4,2,3.61,4.04,5.95,inactive
gce,1,-3.37,0.232,-1.2,inactive
gce,2,-2.68,-0.00234,-1.77,inactive
gce,3,0.883,-1.09,0.694,inactive
gce,4,0.809,1.14,0.238,inactive
cac,1,-0.239,-3.28,0.378,inactive
cac,2,-4.86,0.0322,-0.544,inactive
cac,3,0.284,-0.451,0.231,inactive
MsR1,1,-0.141,-1.17,-1.2,inactive
MsR1,2,-0.0533,-0.0155,-0.935,inactive
aspr,1,0.596,-0.0885,0.696,inactive
aspr,2,0.328,0.0541,0.767,inactive
opa,1,1.09,-2.45,-0.917,inactive
opa,2,0.743,1.61,0.507,inactive
opa,3,1.51,0.0729,-0.522,inactive
Trs33,1,-0.967,-1.97,1.06,inactive
CG13038,1,-1.06,-0.0654,0.737,inactive
phu,1,0.674,-1.68,-1.93,inactive
Fbxl7,1,-4.03,-0.591,-0.561,inactive
Fbxl7,2,0.353,0.19,-0.211,inactive
CG12729,1,1.08,-0.282,-0.597,inactive
CG12729,2,0.453,1.04,-0.657,inactive
CG10465,1,-0.113,1.1,1.03,inactive
CG13707,1,0.897,0.119,-3.25,inactive
TrissinR,1,-4.36,-0.0794,0.606,inactive
TrissinR,2,-0.302,-0.451,1.2,inactive
TrissinR,3,-8.05,-0.686,-0.335,inactive
TrissinR,4,0.401,-0.354,1.09,inactive
TrissinR,5,0.401,0.0908,-0.603,inactive
CG13924,1,0.262,0.277,0.0239,inactive
CG7737,1,0.629,1.59,-0.269,inactive
cora,1,-0.299,-3.53,-0.461,inactive
cora,2,0.505,-0.775,-0.0131,inactive
cora,3,-2.4,-0.692,-2.6,active
